This data set deals with pasture grass mix. The data set is described as follows: Effect of MSM on grass growth and nutrient value. Particulars: MSM 1:500, Dry basis. In kind it is in vivo.

Each structure is given as a SMILES string. No dose or concentration is given here for some results.

Molecule `CS(C)(=O)=O` [MSM, Methylsulfonylmethane] returned a Sulfur (AOAC 923.01) of 0.25%. For the same molecule, the “Crude Protein” value (AOAC 2001.11) was found to be 24.36%. In addition, for the setting “AOAC 2002.04”, the “Neutral Detergent Fiber” value turned out to be 35.23%. The “Non Structural Carbo” value (Calculation) is 25.66%.

The values are drawn from patent US9487749B2 (priority 2009, dated 2016).
